Source: the supplement of paper PMC9931576
Human monoclonal antibodies against the spike receptor-binding domain (heavy:light variable regions). IC50 against pseudoviruses bearing the spike of naturally observed variants; lower = stronger; >10 µg/ml means not reached at the top dose. No active / inactive call. The stated detection limit is 0.0005 µg/ml; values near or below 0.001 µg/ml lie at the floor of the assay.

What was measured:
Assay in all cases: pseudovirus neutralization IC50; higher = weaker neutralization
[1] = biological target: SARS-CoV-2 Omicron BA.1 spike pseudovirus
Protocol: (§1)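 Single-round VSV luciferase pseudovirus mixed with antibody dilutions for 1 h and put on Huh-7 cells for about a day; IC50 from the dose curve.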

[2] = biological target: SARS-CoV-2 Omicron BA.2 spike pseudovirus
Protocol: as §1

[3] = biological target: SARS-CoV-2 Omicron BA.2.75 spike pseudovirus
Protocol: as §1

[4] = biological target: SARS-CoV-2 Omicron BA.5 spike pseudovirus
Protocol: as §1

[5] = biological target: SARS-CoV-2 Omicron BQ.1.1 spike pseudovirus
Protocol: as §1

[6] = biological target: SARS-CoV-2 Omicron XBB spike pseudovirus
Protocol: as §1

[7] = biological target: SARS-CoV-2 early D614G spike pseudovirus
Protocol: as §1

Row | Binder | pseudovirus neutralization IC50 [1] [µg/mL] | pseudovirus neutralization IC50 [2] [µg/mL] | pseudovirus neutralization IC50 [3] [µg/mL] | pseudovirus neutralization IC50 [4] [µg/mL] | pseudovirus neutralization IC50 [5] [µg/mL] | pseudovirus neutralization IC50 [6] [µg/mL] | pseudovirus neutralization IC50 [7] [µg/mL]
1 | BD56-573 (protein) chain 1: EVQLVESGGGLVQPGGSLRLSCAASGFTFSTYDMHWVRQTTGKGLEWVSTIGSAGDRYYPDSVKGRFTISRENAKNSLYLQMNSLKAGDTAVYYCARVTHSAMTAGGRIFHYYYMDVWGKGTTVTVSS chain 2: DIQMTQSPSSLSASVGDRVTITCRASQTITRFLNWYQQKPGKAPKLLIYGASSLQSGVPSRFSGSGSGTDFTLTISSLQPEDFATYFCQQTYSSPGSTFGGGTKVEIK | > 10 | > 10 | > 10 | > 10 | > 10 | > 10 | 6.28
2 | BD56-576 (protein) chain 1: EVQLVESGGGLVQPGGSLRLSCAASGFTFSSYDMHWVRQTPGEGLEWVSLIGTAGDTYYPESVKGRFTISRENAKNSLYLQMNNLRAGDTAVYYCARAGYDILTAYLDLWGRGTLVTVSS chain 2: DIQMTQSPSSLSASVGDTVTITCRASQSIRTYLNWYQQKPGKAPKLLIYAASSLQSGVPSRFSGSGSGTEFTLTISSLQPEDFATYYCQQSYIMPPWTFGQGTKVEIK | 1.92 | 2.93 | 6.12 | 2.76 | 3.46 | 3.86 | 3.3
3 | BD56-577 (protein) chain 1: QEQVEESGGGVVQPGRSLRLSCAASGFTFRNSAMHWVRQAPGKGLEWVALISYDGTKTFYADSVNGRFSISRDNSKNRLYLRLSALRPEDTAIYYCARGIGYCTDDDVCHTPYYYYGMDVWGPGTTVTVSS chain 2: DIQITQSPSSLSASVGDRVTIACRASQTISSYLNWYQHKPGKAPSLLIYGASSLQSGVPSRFSGSGSGTDFTLTIRSLQPEDFATYYCQQTYSPPLTFGGGTKVEIK | > 10 | > 10 | > 10 | > 10 | > 10 | > 10 | > 10
4 | BD56-581 (protein) chain 1: EVQLVQSGSELKKPGASVKVSCKAFGYPFTTFAMNWVRQAPGQGLEWMGWIDTNTGNPTYAQGFTGRFVFSLDTSVSTAYLQISSLKTEDTAVYYCASWGGSVGPGWFDPWGQGTLVTVSS chain 2: SYVLTQPPSVSVAPGKTARITCGGNNIGSRSVHWYQQKPGQAPVLVIYYDSDRPSGVPERFSGSNSGNTATLTISRVEGGDEADYYCQVWVSSHDHPEDVVFGGGTKLTVL | 0.235 | 0.247 | 0.21 | > 10 | > 10 | > 10 | 1.04
5 | BD56-587 (protein) chain 1: QVQLVQSGAEVKKPGSSVKVSCKASGGTFSSYAFSWVRQAPGQGLEWMGRIIPVLAITNYARKFQGRVAITADTSTSTAYMELSSLRSEDTAVYYCARDLDYDILTGRRGGYFYYYMDVWGKGTTVTVSS chain 2: QSVLTQPPSASGTPGQRVTISCSGSSSNIGSNAVNWYLQLPGTAPKLLIYNNDQRPSGVPDRFSGSKSGTSASLAISGLQSEDEADYHCAAWDDSLGGQEVFGTGTKVTVL | 0.0289 | 0.0325 | 0.0286 | > 10 | > 10 | > 10 | 0.0134
6 | BD56-588 (protein) chain 1: EVQLVESGGGLVPPGGSLRLSCAASGFSFSNYDMHWVRQATGKGLEWVSGIGTSGDTYYAVSVKGRFTISRENAKNSLYLQMNSLRAGDTAVYYCARGGTDSSGFYYWFDPWGQGTLVTVSS chain 2: DIQMTQSPSSLSASVGDRVTITCRASQSINNYLNWYQQKPGKAPKLLIFAASSLQSGVPSRFSGSGSGTDYTLTISSLQPEDFATYYCQQSYSSPPWTFGQGTKVEIK | > 10 | > 10 | > 10 | > 10 | > 10 | > 10 | > 10
